Drawing on patent US20110282030A1, “Chimeric natriuretic peptides without hypotensive inducing capability” (published 2011), this text covers fold more peptide than ANP required to compete for ^125I-ANP and EC50, cellular cGMP elevation in 293 cells expressing hNPR-B for one substance.

One experiment concerns the target human NPR-A (human) (UniProt P16066).
The target of another experiment is human NPR-B (human) (UniProt P20594). The experiment in a line: cell-based or functional assay.

“CD-NP polypeptide (peptide; modification not given)” came in with a fold more peptide than ANP required to compete for ^125I-ANP with human NPR-A (human) of 1000 fold. The EC50, cellular cGMP elevation in 293 cells expressing hNPR-B with human NPR-B (human) was determined as 202 nM.
